# Source: PubChem BioAssay AID1259414 (Drosophila RNAi Screening Center, 2018)
# Test: 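Genome-wide screen for host control of endosymbiont load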 (primary screen)
# Cell system: Drosophila JW18 cells infected with Wolbachia
# Reagents: long dsRNA against Drosophila genes, 0.25 µg dsRNA per well of a 384-well plate
# Duration: 5 days
# Challenge: cells persistently infected with Wolbachia before knock-down; no added drug
# Detection: 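Automated imaging of bacterial rRNA staining divided by host cell count, reported as plate-normalised robust z-score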
# Scale: Wolbachia per cell robust z: higher = more Wolbachia per host cell than the plate typical
# Rule for the call: 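Active if absolute robust z reaches 1.5 in two or more of three replicates, leaving out multi- or no-target dsRNAs, genes unexpressed in JW18 and A1 wells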
# The screen tested about 24,000 reagents; this is an unselected part of those that have a named target and a result. Over the whole deposit, about 1,210 (5%) were called active. 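Inactive calls also include excluded dsRNAs with several or no targets, genes unexpressed in JW18, and well A1, regardless of score.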 A plus sign joins genes that one reagent is predicted to hit.
"Wolbachia per cell robust z, rep 1","Wolbachia per cell robust z, rep 2","Wolbachia per cell robust z, rep 3",Outcome,target,DRSC id
0.39,0.473,0.739,inactive,Gr58b,DRSC04140
0.765,0.704,0.65,inactive,CG4404,DRSC19897
-0.782,0.567,-0.114,inactive,CG4404,DRSC23956
-0.129,0.589,-0.108,inactive,l(2)41Ab,DRSC21007
1.55,-0.495,0.0465,inactive,l(2)41Ab,DRSC37749
-2.94,0.0178,0.754,inactive,pira,DRSC19494
-0.0164,-0.202,0.0634,inactive,SPH93,DRSC02978
-3.08,0.295,0.289,inactive,p24-1,DRSC19827
-0.229,0.256,1.69,inactive,p24-1,DRSC26718
-0.604,-1.15,-0.908,inactive,CG6465,DRSC16046
-1.12,0.281,-1.61,inactive,CG6465,DRSC25671
-2.18,0.271,-2.43,inactive,CG14756,DRSC06491
-5.52,-5.47,-5.47,inactive,CG14756,DRSC24808
0.266,0.658,0.134,inactive,SmydA-6,DRSC07341
-0.364,0.886,-1.03,inactive,CG14565,DRSC11726
-0.756,-3.25,-0.72,inactive,CG14565,DRSC26063
0.457,0.417,-0.00289,inactive,kraken,DRSC00824
-1.13,1.11,-0.155,inactive,kraken,DRSC28163
2.78,2.38,3.39,active,pbl,DRSC11381
1.83,2.91,2.23,active,pbl,DRSC26301
0.0641,1.67,0.466,inactive,mu2,DRSC08726
-0.457,-1.06,-1.39,inactive,mu2,DRSC21534
-1.55,0.111,0.117,inactive,obst-J,DRSC10821
0.252,-0.105,0.263,inactive,obst-J,DRSC28354
-1.17,-0.479,-1.14,inactive,CG42260 + asRNA:CR30267,DRSC03953
-1.52,0.334,1.42,inactive,CG11112,DRSC06038
-0.693,0.00889,-1.01,inactive,CG11112,DRSC25552
-0.975,0.421,0.555,inactive,Tim17b1,DRSC12179

Laid out differently: 2 of the entries above.
Wolbachia per cell robust z, rep 1 | Wolbachia per cell robust z, rep 2 | Wolbachia per cell robust z, rep 3 | Outcome | target | DRSC id
-1.52 | 0.334 | 1.42 | inactive | CG11112 | DRSC06038
-0.693 | 0.00889 | -1.01 | inactive | CG11112 | DRSC25552
